System: RBCs
Experiment: Volatile collection (SPME) and GC-MS analysis of RBC headspace
Type: cell-based, Human
Protocol: RBCs (1 ml) were transferred to 4 ml glass vials closed with auto-sampler screw caps, and equilibrated in a thermostat at 38° C. for 15 min. Then, 2.5 μl of HMBPP or Nanopure water were added to the RBCs samples (final concentration: 10 μM HMBPP per sample). Volatiles were collected from the headspace using solid phase micro-extraction (SPME; Supelco, Bellmonte, Pa., USA) (M. J. Yang, el al., J. Chem. Educ., 74, 1130-1132 (1997) and A. K. Borg-Karlson and R. Mozuraitis, Naturforsch., C. 51, 599-602 (1996)). Prior to headspace exposure, the polydimethylsiloxane/divinylbenzene/carboxene-coated SPME fiber (grey) was conditioned for 5 min at 250° C. in a gas chromatograph (GC) injector (6890, Agilent Technologies, Santa Clara, Calif., USA). Volatiles were collected for 30 min (n=5). The volatiles on SPME fiber were then desorbed in the injector (splitless mode, 0.5 min, 225° C.) of a combined Agilent 7890 GC and 5977 mass spectrometer (MS). Helium was used as the carrier gas with a constant flow of 35 cm min^−1. The GC was equipped with a DB-wax coated fused silica capillary column (J&W Scientific, Folsom, Calif., USA; 60 m×0.25 mm i.d., d.f.=0.25 μm). The GC oven temperature was programmed from 30° C. (3 min hold) to 225° C., increasing at 8° C. min^−1, then isothermal for 10 min. Electron ionisation mass spectra were determined at 70 eV with the ion source kept at 230° C. and mass spectra were obtained at mass to charge ratio (m/z) 29-400. Chromatographic profiles of volatiles, which were sampled from RBCs and hRBCs, were compared. The compounds that were more abundant in the hRBC samples were identified according to their retention indices (Retention Index) and mass spectra in comparison with the NIST library (Agilent Technologies) and authentic standards. A similar protocol was used for the quantification of CO2, with the mass spectral data and GC retention times being compared with emission from frozen CO2. The relative amounts of CO2 in arbitrary units were determined from the areas of the respective chromatogram peaks using single ion display mode at m/z 44±0.5 Da. The amounts of identified compounds were quantified by the use of extracted ion chromatograms, since they are very minute. The compounds identified were the only volatiles identified in the SPME samples. The estimations were based on the very same quantifications given in ‘arbitrary area units’. The SPME volatile collections were made under very controlled conditions: the same volume of ‘RBCs’ and the very same temperature, which gives the same % RH in the vials, and under these very same conditions the affinities of the volatiles to the SPME fiber coating are the same.

SMILES	proportion of compound identified in the headspace for hRBCs, % by weight (of the combined compounds) [% by weight]
CCCCCCCCCC=O [decanal]	12
CCCCCCCCC=O [nonanal]	35
CCCCCCCC=O [octanal]	23
C=C(C)C1CC=C(C)CC1 (stereo not shown) [limonene]	18

Source: patent US11638424B2, “Mosquito attractant formulations and uses thereof” (priority 2017, dated 2023)
